Pooled drug test results. Numbers come from NIAID ChemDB, via PubChem.

Common to all: whole-cell or culture tests; agent: HIV-1; cell line: CEM; read by: syncytia; measure: fold resistance

Conditions beyond the fields shown may differ between rows. Fold resistance has wild type as its base. Blank or dashed fields: not listed here.

structure | mutations | strain or isolate | value
C/C=C\COc1cc(NC(=S)OC(C)C)ccc1OC | RT-V106A |  | 50
CCC1=C(C(=O)Nc2ccc(Cl)c(C(=O)OC(C)C)c2)SCCO1 | RT-V106A | Nevirapine-resistant (RT V106A) | 150
CC(C)OC(=O)c1cc(NC(=S)c2ccccc2N)ccc1Cl | RT-V106A |  | 100
CSCCOC(=S)Nc1ccc(Cl)c(C(=O)OC(C)C)c1 | RT-E138K |  | 11.1
COc1ccc(NC(=O)c2ccoc2C)cc1OCC=C(Cl)Cl | RT-K103N | TIBO R82913-resistant (RT K103N) | 40
CCCOC(=O)c1cc(NC(=O)C2=C(C)OCCS2)ccc1Cl | RT-E138K | TSAO-resistant (RT E138K) | 200
Cc1occc1C(=S)Nc1ccc(Cl)c(/C=N/OC(C)(C)C)c1 | RT-V179D | IIIB | 4
Cc1sccc1C(=O)Nc1ccc(Cl)c(OCC=C(Cl)Cl)c1 | RT-L100I | TIBO R82150-resistant (RT L100I) | 5.89
CC(C)=CCOc1cc(NC(=S)c2ccoc2C)ccc1Cl | RT-V179D | IIIB | 1.9
CCCCCCCCCC[N+](C)(C)CCCNCc1c(O)cc2c(c1O)-c1cc(ccc1O)[C@H]1NC(=O)[C@@H]3NC(=O)C4NC(=O)[C@@H](Cc5ccc(c(Cl)c5)Oc5cc3cc(c5O)Oc3ccc(cc3Cl)[C@@H](O)[C@H](NC1=O)C(=O)N[C@@H]2C(=O)O)NC(=O)[C@H](N)c1ccc(O)c(c1)Oc1cc(O)cc4c1 | RT-Y181C |  | 3.04
COC(=O)c1cc(NC(=S)OC(C)C)ccc1Cl | RT-Y181C |  | ≥20
Cc1ccc(C)c(CS(=O)(=O)c2cccc[n+]2[O-])c1 | RT-L100I | IIIB | 1.89
CCc1c(Sc2cc(C)cc(C)c2)n(COCCO)c(=O)[nH]c1=O | RT-E138K | IIIB | 10
CC(C)OC(=O)c1cc(NC(=S)N(C)C(C)C)ccc1Cl | RT-E138K |  | >1
COc1ccccc1C(=S)Nc1ccc(Cl)c(C(=O)OC(C)C)c1 | RT-L100I |  | 33.3
CC[C@H](C)OC(=S)Nc1ccc(Cl)c(C(=O)OC(C)C)c1 | RT-V106A |  | 13.3
CC1=C(C(=O)Nc2ccc(Cl)c(OCC=C(Cl)Cl)c2)SCCO1 | RT-E138K | TSAO-m3T-resistant (RT E138K) | 1.67
CC(C)OC(=O)c1cc(NC(=S)c2cccs2)ccc1Cl | RT-L100I |  | 71.4
C#CCOC(=O)c1cc(NC(=S)OC(C)C)ccc1Cl | RT-Y181C |  | ≥34.5
Cc1occc1C(=S)Nc1ccc(Cl)c(OC(=O)OC(C)C)c1 | RT-K103N |  | 10.9
CCC(CC)COC(=O)c1cc(NC(=S)OC(C)C)ccc1Cl | RT-L100I |  | 16.6
C=C(Cl)COc1cc(NC(=S)c2ccoc2C)ccc1C | RT-K103N | TIBO R82913-resistant (RT K103N) | 8.33
CC(C)c1c(Sc2ccccc2)n(COCc2ccccc2)c(=O)[nH]c1=O | RT-Y181I | IIIB | 1670
CCOC(=O)c1cc(NC(=S)c2ccoc2C)ccc1C | RT-Y181C |  | 63.3
C/C(Cl)=C/COc1cc(NC(=S)c2ccoc2C)ccc1Cl | RT-E138K | TSAO-m3T-resistant (RT E138K) | 2.67
Cc1ccoc1C(=S)Nc1ccc(Cl)c(C(=O)OC(C)C)c1 | RT-V106A |  | 51.6
COCC1=C(C(=O)Nc2ccc(Cl)c(C(=O)OC(C)C)c2)SCCO1 | RT-E138K | TSAO-resistant (RT E138K) | 5
CCC(CC)OC(=O)c1cc(NC(=S)OC(C)C)ccc1Cl | RT-E138K |  | 15
CC1=C(C(=O)Nc2ccc(Cl)c(C(=O)OC(C)C)c2)SCCO1 | RT-Y181C | IIIB | 1000
CC1=C(C(=O)Nc2ccc(F)c(C(=O)OC(C)C)c2)SCCO1 | RT-V106A | Nevirapine-resistant (RT V106A) | >28.6
CCCCCCCCCC[N+](C)(C)CCCNCc1c(O)cc2c(c1O)-c1cc(ccc1O)[C@H]1NC(=O)[C@@H]3NC(=O)C4NC(=O)[C@@H](Cc5ccc(c(Cl)c5)Oc5cc3cc(c5O)Oc3ccc(cc3Cl)[C@@H](O)[C@H](NC1=O)C(=O)N[C@@H]2C(=O)O)NC(=O)[C@H](N)c1ccc(O)c(c1)Oc1cc(O)cc4c1 | RT-Y188H |  | 2.14
CC(C)COC(=O)c1cc(NC(=S)OC(C)C)ccc1Cl | RT-V106A |  | 85.9
CCOCn1c(Cc2cc(C)cc(C)c2)c(CC)c(=O)[nH]c1=O | RT-Y188H | IIIB | 1000
Cc1ccsc1C(=S)Nc1ccc(Cl)c(C(=O)OC(C)C)c1 | RT-L100I |  | 150
O=C(Nc1ccc(Cl)c(C(=O)OC2CCCCC2)c1)c1ccccc1F | RT-D138K | IIIB | 6.67
CC(C)=CCOc1cc(NC(=S)c2ccoc2C)ccc1Cl | RT-L100I |  | 2.3
CC(C)OC(=O)c1cc(NC(=S)OCC2(C)COC2)ccc1Cl | RT-V106A |  | >1.07
CCC1=C(C(=O)Nc2ccc(Cl)c(C(=O)OCC(C)C)c2)SCCO1 | RT-V106A | Nevirapine-resistant (RT V106A) | 60
C/C=C/CSc1cc(NC(=S)c2ccsc2C)ccc1Cl | RT-V106A |  | 4.59
CCCC1=C(C(=O)Nc2ccc(Cl)c(C(=O)OCC)c2)SCCO1 | RT-V106A | Nevirapine-resistant (RT V106A) | >66.7
COc1ccc(C)cc1CS(=O)(=O)c1cccc[n+]1[O-] | RT-L100I | IIIB | 6.78
Cc1ccsc1C(=O)Nc1ccc(Cl)c(/C=N/OC(C)(C)C)c1 | RT-E138K |  | 6.83
CCc1c(Sc2cc(C)cc(C)c2)n(COCc2ccccc2)c(=S)[nH]c1=O | RT-K103N | IIIB TIBO R82913-resistant (RT K103N) | 18.3
C/C(Cl)=C/COc1cc(NC(=O)c2ccoc2C)ccc1Cl | RT-E138K | TSAO-m3T-resistant (RT E138K) | 7.11
CN1CCN(C(=O)c2ccc3c(=O)c4ccccc4[nH]c3c2)CC1 | RT-L100I |  | 63.8
COc1ccc(NC(=S)C2=C(C)OCCS2)cc1OCC=C(Cl)Cl | RT-E138K | TSAO-m3T-resistant (RT E138K) | 13
CC(C)(C)OC(=O)c1cc(NC(=S)OC(C)(C)C)ccc1Cl | RT-E138K |  | 1
Cc1sccc1C(=S)Nc1ccc(Cl)c(OCCC(C)C)c1 | RT-L100I |  | 4.1
CC[C@@H](C)OC(=S)Nc1ccc(Cl)c(C(=O)OC(C)C)c1 | RT-Y181C |  | 29.8
Cc1occc1C(=S)Nc1ccc(Cl)c(/C=N/OCc2ccccc2)c1 | RT-Y181C |  | 2.95
CCCSC(=Nc1ccc(Cl)c(C(=O)OC(C)C)c1)OC(C)C | RT-L100I |  | 15.3
Cn1cccc1C(=S)Nc1ccc(Cl)c(/C=N/OC(C)(C)C)c1 | RT-L100I |  | 4.49
CCC(C)OC(=S)Nc1ccc(Cl)c(C(=O)OC(C)(C)C)c1 | RT-L100I |  | 21.7
Cc1sccc1C(=S)Nc1ccc(Cl)c(C(=O)OC2CCCCC2)c1 | RT-V106A |  | 8.57
CC1=C(C(=O)Nc2ccc(Cl)c(C(=O)OC3CCCC3)c2)SCCO1 | RT-Y181C | PYR-resistant (RT Y181C) | 13
CCOCn1c(Cc2ccccc2)c(CC)c(=O)[nH]c1=O | RT-Y188H | IIIB | ≥1875
CC(C)OC(=O)c1cc(NC(=S)OC(C)C)ccc1Cl | RT-Y181C | IIIB | 65.5
C=CCOC(=O)c1cc(NC(=S)c2ccoc2C)ccc1Cl | RT-L100I |  | 33.3
CC(C)OC(=O)c1cc(NC(=S)OC(C)C)ccc1Cl | RT-L100I |  | 73.6
CC(C)=CCOc1cc(NC(=S)c2ccsc2C)ccc1Cl | RT-K103N |  | 6.3
Cc1cc(C)c(CS(=O)c2cccc[n+]2[O-])c(C)c1 | RT-E138K | IIIB | 4.16
COCCOC(=S)Nc1ccc(Cl)c(C(=O)OC(C)C)c1 | RT-L100I |  | 31.6
Cc1ccsc1C(=S)Nc1ccc(Cl)c(/C=N/OC(C)(C)C)c1 | RT-E138K |  | 5
C=CCOC(=S)Nc1ccc(Cl)c(C(=O)OC(C)C)c1 | RT-E138K |  | 36.9
Cc1ccsc1C(=S)Nc1ccc(Cl)c(C(=O)OC2CCCCC2)c1 | RT-V106A |  | 6.67

The first 5 rows once more:

structure	mutations	strain or isolate	value
C/C=C\COc1cc(NC(=S)OC(C)C)ccc1OC	RT-V106A		50
CCC1=C(C(=O)Nc2ccc(Cl)c(C(=O)OC(C)C)c2)SCCO1	RT-V106A	Nevirapine-resistant (RT V106A)	150
CC(C)OC(=O)c1cc(NC(=S)c2ccccc2N)ccc1Cl	RT-V106A		100
CSCCOC(=S)Nc1ccc(Cl)c(C(=O)OC(C)C)c1	RT-E138K		11.1
COc1ccc(NC(=O)c2ccoc2C)cc1OCC=C(Cl)Cl	RT-K103N	TIBO R82913-resistant (RT K103N)	40